Compound potency records, mixed from different reports. Data source: NIAID ChemDB in PubChem.

All rows: tests in culture; agent: HIV-1

ECn is the concentration giving n% inhibition of infection, replication or growth. Two numbers with a dash give a range or band. Neighbouring rows are from separate reports. Fold resistance: result on the changed form divided by that on wild type. Percent inhibition refers to the dose given; in toxicity tests it is the harm to the cells. Blank or dashed fields: not listed here.

| compound | read-out | tested at | read by | cells | mutations | strain or isolate | result |
|---|---|---|---|---|---|---|---|
| Cc1cc2[nH]cnc2cc1NC(=O)COc1ccc(Cl)cc1C(=O)c1cc(F)cc(C(F)(F)F)c1 | fold resistance |  | β-galactosidase | HeLa + HELA CD4+ | RT-E138K | HXB2 | ~1 |
| Cc1cn([C@H]2C=C[C@@H](CO)O2)c(=O)[nH]c1=O | EC90 |  | p24 | MT-4 | RT-M41L D67N K70R T215Y K219Q | XM-AZT-resistant | 0.7 µM |
| Cc1cc(S(N)(=O)=O)ccc1NC(=O)COc1ccc(Cl)cc1C(=O)c1cccc(C#N)c1 | fold resistance |  | β-galactosidase | HeLa + HELA CD4+ | RT-V106I | HXB2 | ~1 |
| CC1(C)c2nc(C(=O)NCc3ccc(F)cc3)c(O)c(=O)n2CCN1Cc1ccccc1 | EC95 |  | p24 | MT-4 |  |  | <1 µM |
| O=C1Nc2ccc(Cl)cc2[C@@](/C=C/C2CC2)(C(F)(F)F)N1 | EC90 |  |  |  | RT-V106A |  | <0.012 µM |
| CC(C)=CCOc1cc(NC(=S)c2ccsc2C)ccc1Cl | fold resistance |  | cytopathic effect / XTT | CEM + CEM-SS | RT-Y181C | E BPTU-resistant (RT Y181C) | 25 |
| Cc1cc(CNC(=O)c2nc3n(c(=O)c2O)CCN(C2CC2)CC3N(C)C(=O)C(=O)N(C)C)ccc1F | EC95 |  | p24 | MT-4 |  |  | <1 µM |
| O=C(NCCc1ccccc1)Nc1ncccn1 | inhibition | 100 µg/mL | cytopathic effect / XTT | MT-4 |  |  | 22% |
| O=C(N[C@@H](Cc1ccccc1)C(=O)C(F)(F)C(Cc1ccccc1)NS(=O)(=O)c1ccccc1)OC1COCOC1 | EC90 |  | p24 | CEM |  | IIIB | 1 µM |
| Nc1nc(NC2CC2)c2ncn([C@H]3C=C[C@@H](CO)C3)c2n1 | EC90 |  | p24 | MT-4 | RT-T69SSS L210W T215Y | XM-T69SSS | 32 µM |
| O=C(C(=O)N1CCN(C(=O)c2ccccc2)CC1)c1c[nH]c2c(Br)cccc12 | inhibition | 10 µM | luciferase | HeLa + HELA CD4+/CCR5 |  |  | >98% |
| Cc1ccc(-c2ccc3c(c2)C=C(C(=O)Nc2ccc(C[N+](C)(C)C4CCOCC4)cc2)CCC3)cc1 | inhibition | 1 µM | p24 | PBMC |  | TB3 CLADE C | 100% |
| COc1c(OCC=C(C)C)cc2oc(=O)ccc2c1O | EC10 |  | MTT | SupT1 + Sup-T1 |  |  | 20 µg/mL |
| CC(C)C1=C2[C@H]3CC[C@@H]4[C@@]5(C)CC[C@H](OC(=O)[C@H]6C[C@@H](C(=O)O)C6(C)C)C(C)(C)[C@@H]5CC[C@@]4(C)[C@]3(C)CC[C@@]2([C@@H](O)CNC(=O)c2ccc(Cl)cc2OCCN2CCS(=O)(=O)CC2)CC1=O | EC50 |  | p24 / ELISA | MT-2 |  | 92HT599 | <1 µM |
| O=C(C(=O)N1CCN(C(=O)c2cccc(Br)c2S)CC1)c1c[nH]c2cccc(F)c12 | inhibition | 10 µM | luciferase | HeLa + HELA CD4+/CCR5 |  |  | 97% |
| CC1(C)[C@@H](O[C@H]2O[C@H](C(=O)O)[C@@H](O)[C@H](O)[C@H]2O[C@@H]2O[C@H](C(=O)O)[C@@H](O)[C@H](O)[C@H]2O)CC[C@]2(C)[C@H]3C(=O)C=C4[C@@H]5C[C@@](C)(C(=O)O)CC[C@]5(C)CC[C@@]4(C)[C@]3(C)CC[C@@H]12 | inhibition | 1200 µM | antigen | MT-4 |  | IIIB | 99.2% |
| CC(C)[C@H](NC(=O)OCc1ccccn1)C(=O)N[C@@H](Cc1ccccc1)[C@@H](O)C[C@H](Cc1ccccc1)NC(=O)OCc1cccnc1 | EC95 |  | p24 | MT-4 | PR-L10R M46I L63P V82T I84V | NL4-3 | 3 µM |
| CCCCOC(=O)c1ccc(NC(=O)NCCc2ccccc2)cc1 | inhibition | 10 µg/mL | cytopathic effect / XTT | MT-4 |  |  | 0% |
| Cc1ccc(C2CC2)c(-c2cc(F)c3c(c2C)CCCO3)c1[C@H](OC1CC1)C(=O)O | fold resistance |  | luminescence | MT-4 | NRTI/NNRTI resistant NLAY351717 | NL4-3 | 1 |
| O=C1Nc2ccc(Cl)cc2[C@@](C#CC2CC2)(C(F)(F)F)N1 | EC90 |  |  |  | RT-P225H |  | <0.012 µM |
| O=C1Cn2c(nc(C(=O)NCc3ccc(F)cc3)c(O)c2=O)CN1 | EC95 |  | p24 | MT-4 |  |  | <50 µM |
| Nc1ccn([C@H]2CC[C@@H](CO)O2)c(=O)n1 | EC80 |  |  | MT-4 |  |  | 9 µM |
| CC(C)C1=C2[C@H]3CC[C@@H]4[C@@]5(C)CC[C@H](OC(=O)[C@H]6C[C@@H](C(=O)O)C6(C)C)C(C)(C)[C@@H]5CC[C@@]4(C)[C@]3(C)CC[C@@]2([C@@H](O)CNCC2(N)CCC2)CC1=O | EC50 |  | p24 / ELISA | MT-2 |  | 92HT599 | <1 µM |
| Cc1nc(CN2CCn3c(nc(C(=O)NCc4ccc(F)cc4)c(O)c3=O)C2(C)C)cs1 | EC95 |  | p24 | MT-4 |  |  | <1 µM |
| CCC(=O)c1ccc(F)c([C@@H]2C[C@@H]2NC(=O)Nc2ccc(C#N)cn2)c1O | fold resistance |  | β-galactosidase / luminescence | TZM-bl | NNRTI-resistant (RT F227C) | LAI | 14.8 |
| N#Cc1cc(Cl)cc(Oc2c(Br)ccc(CC(=O)Nc3ccc(S(N)(=O)=O)cc3Cl)c2F)c1 | fold resistance |  |  | MT-4 | K103N/Y181C |  | 1 |
| C[C@@H]1CCO[C@H]2Cn3cc(C(=O)NCc4ccc(F)cc4F)c(=O)c(O)c3C(=O)N12 | fold resistance |  | luminescence | MT-4 | INSTI-resistant G140S/Q148H | NL4-3 | 2 |
| Cc1noc(C)c1C(=O)NC(C)(C)CNC[C@H](O)[C@@]12CC[C@]3(C)[C@H](CC[C@@H]4[C@@]5(C)CC[C@H](OC(=O)[C@H]6C[C@@H](C(=O)O)C6(C)C)C(C)(C)[C@@H]5CC[C@]43C)C1=C(C(C)C)C(=O)C2 | EC50 |  | p24 / ELISA | MT-2 |  | 92HT599 | <1 µM |
| C=CCOC(=O)N(CCc1ccccc1)C[C@H](O)CN(CC1CCCC1)S(=O)(=O)c1ccc(OC)cc1 | EC90 |  | p24 | CEM |  | IIIB | 0.1 µM |
| CS(=O)(=O)O.Cc1c(O)cccc1C(=O)N[C@@H](CSc1ccccc1)[C@H](O)CN1C[C@H]2CCS[C@H]2C[C@H]1C(=O)NC(C)(C)C | EC95 |  | cytopathic effect / XTT | CEM + CEM-SS |  | HXB2 | 0.018 µM |
| O=C(C(=O)N1CCN(C(=O)c2ccc(Br)o2)CC1)c1c[nH]c2cccc(F)c12 | inhibition | 10 µM | luciferase | HeLa + HELA CD4+/CCR5 |  |  | >98% |
| COc1ccnc2[nH]cc(C(=O)C(=O)N3C4CC3CN(C(=O)c3ccccc3)C4)c12 | EC99 |  | luciferase | TZM-bl |  | QH0692 | >>250 µM |
| Cc1cc(S(N)(=O)=O)ccc1NC(=O)COc1ccc(Cl)cc1C(=O)c1cc(F)cc(F)c1 | fold resistance |  | β-galactosidase | HeLa + HELA CD4+ | RT-K103N L100I | HXB2 | ~1 |
| COc1ccc(C(=O)N2CCN(C(=O)C(=O)c3c[nH]c4cccc(F)c34)CC2)c(S)c1 | inhibition | 10 µM | luciferase | HeLa + HELA CD4+/CCR5 |  |  | 81% |
| CC(=O)c1ccc(C)cc1NC(C(N)=O)c1c(Cl)cccc1Cl | fold resistance |  | cytopathic effect / XTT | CEM + CEM-SS | RT-Y181C | UC040-R (RT-Y181C) | >100 |
| Nc1ccccc1C(=O)N1CCN(C(=O)C(=O)c2c[nH]c3ccccc23)CC1 | inhibition | 10 µM | luciferase | HeLa + HELA CD4+/CCR5 |  |  | 36% |
| Cc1cc(C#N)cc(C(=O)c2cc(Cl)ccc2OCC(=O)Nc2cnc(S(N)(=O)=O)cc2C)c1 | fold resistance |  | β-galactosidase | HeLa + HELA CD4+ | RT-G190A | HXB2 | ~1 |
| CCOc1ccc2nc(NC(=O)NCCc3ccccc3)sc2c1 | inhibition | 10 µg/mL | cytopathic effect / XTT | MT-4 |  |  | 5% |
| COc1ccnc2[nH]cc(C(=O)C(=O)N3C4CCC3CN(C(=O)c3ccccc3)C4)c12 | EC99 |  | luciferase | TZM-bl |  | ZM214 | 144 µM |
| Cc1cc(S(N)(=O)=O)ccc1NC(=O)COc1ccc(Cl)cc1C(=O)c1cc(F)cc(C(F)(F)F)c1 | fold resistance |  | β-galactosidase | HeLa + HELA CD4+ | RT-P225H | HXB2 | ~1 |
| C[C@H]1[C@H](O)[C@@H](C)/C=C/C=C/C=C/C=C/C=C/C=C/C=C/[C@H](O[C@@H]2O[C@H](C)[C@@H](O)[C@H](N)[C@@H]2O)C[C@@H]2O[C@](O)(C[C@@H](O)C[C@@H](O)CC[C@H](O)[C@@H](O)C[C@@H](O)CC(=O)O[C@H]1C)C[C@H](O)[C@H]2C(=O)O | inhibition | 1.6 µM | p24 / RT activity | PBMC |  | 93BR020 CLADE F R5/X4 (SI) | 90% |
| O=C(NCCc1ccccc1)Nc1nc2ccc(Cl)cc2s1 | inhibition | 10 µg/mL | cytopathic effect / XTT | MT-4 |  |  | 63–69% |
| COc1cc(C[C@H]2C(=O)OC[C@@H]2Cc2ccc(OC)c(OC)c2)ccc1O | EC80 |  | p24 | H9 |  | IIIB | 0.05–0.9 µM |
| CCCCN1C(=O)[C@@H](Cc2ccccc2)NC1=S | inhibition | 1 µg/mL | cytopathic effect / XTT | MT-4 |  |  | 0–5% |
| CC(C)C1=C2[C@H]3CC[C@@H]4[C@@]5(C)CC[C@H](OC(=O)[C@H]6C[C@@H](C(=O)O)C6(C)C)C(C)(C)[C@@H]5CC[C@@]4(C)[C@]3(C)CC[C@@]2(CCNCc2ccc(CN3CCN(C)CC3)cc2)CC1=O | EC50 |  | p24 / ELISA | MT-2 |  | 92HT599 | <1 µM |
| Cc1cc2cn[nH]c2cc1NC(=O)COc1ccc(Cl)cc1C(=O)c1cccc(C#N)c1 | fold resistance |  | β-galactosidase | HeLa + HELA CD4+ | RT-L100I | HXB2 | ~1 |
| CC(C)C1=C2[C@H]3CC[C@@H]4[C@@]5(C)CC[C@H](OC(=O)[C@H]6C[C@@H](C(=O)O)C6(C)C)C(C)(C)[C@@H]5CC[C@@]4(C)[C@]3(C)CC[C@@]2([C@@H](O)CNC(=O)c2ccc(CN3CCN(C)CC3)cc2)CC1=O | EC50 |  | p24 / ELISA | MT-2 |  | 92HT599 | <1 µM |
| CC(C)=CCOc1cc(NC(=S)c2ccoc2C)ccc1Cl | fold resistance |  | p24 | CEM + CEM-SS | RT-A98G | NL4-3 | 3.33 |
| COc1ccc(S(=O)(=O)N(CC[C@H](O)CN(CC(C)C)S(=O)(=O)c2ccc(OC)cc2)CC(C)C)cc1 | EC90 |  | p24 | CEM |  | IIIB | 0.1 µM |
| C[C@@H]1CN(C(=O)c2ccccc2)CCN1C(=O)C(=O)c1c[nH]c2cccc(F)c12 | inhibition | 10 µM | luciferase | HeLa + HELA CD4+/CCR5 |  |  | >98% |
| COc1ccc(S(=O)(=O)N(CC(C)C)C[C@@H](O)[C@@H]2CCCCCCCCCOc3c(O)cccc3C(=O)N2)cc1 | EC75 |  | cytopathic effect / MTT | MT-2 |  | LAI | >1 µM |
| COc1ccc(S(=O)(=O)N(CC(C)C)C[C@@H](O)CC(=O)N2CCN(C(=O)OCc3ccccc3)C[C@H]2C(=O)NC(C)(C)C)cc1 | EC90 |  | p24 | CEM |  | IIIB | 1 µM |
| Cc1nnc(-c2ccc(CNC(=O)C[C@@]34CC[C@]5(C)[C@H](CC[C@@H]6[C@@]7(C)CC[C@H](OC(=O)[C@H]8C[C@@H](C(=O)O)C8(C)C)C(C)(C)[C@@H]7CC[C@]65C)C3=C(C(C)C)C(=O)C4)cc2)o1 | EC50 |  | p24 / ELISA | MT-2 |  | 92HT599 | <1 µM |
| CC(C)=CCOc1cc(NC(=S)c2ccoc2C)ccc1Cl | fold resistance |  | cytopathic effect / XTT | CEM + CEM-SS | RT-K101E | NL4-3 (RT K101E) | 6.67 |
| Cc1cccc2c(C(=O)C(=O)N3CCN(C(=O)c4ccccn4)C[C@H]3C)c[nH]c12 | inhibition | 10 µM | luciferase | HeLa + HELA CD4+/CCR5 |  |  | >98% |
| CC(C)C1=C2[C@H]3CC[C@@H]4[C@@]5(C)CC[C@H](OC(=O)[C@H]6C[C@@H](C(=O)O)C6(C)C)C(C)(C)[C@@H]5CC[C@@]4(C)[C@]3(C)CC[C@@]2([C@@H](O)CNC(=O)C(C)(C)NC(=O)c2cccc(Cl)c2)CC1=O | EC50 |  | p24 / ELISA | MT-2 |  | 92HT599 | <1 µM |
| O=C(COc1ccc(Cl)cc1C(=O)c1ccccc1)Nc1ccc2cn[nH]c2c1 | fold resistance |  | cytopathic effect / propidium iodide | MT-4 | RT-Y181C | Nevirapine-resistant (RT Y181C) | ~10 |
| O=C(O)c1cc(-n2cccc2)ccc1Cl | EC90 |  | luciferase / cell fusion | PBMC/5.25M7 |  | 93UG065 X4 CLADE D | 136 µM |
| CCN1CCn2c(nc(C(=O)NCc3ccc(F)c(C)c3)c(O)c2=O)C(N(C)C(=O)C(=O)N(C)C)C1 | EC95 |  | p24 | MT-4 |  |  | <1 µM |

4 of the rows above, restated:

O=C(C(=O)N1CCN(C(=O)c2cccc(Br)c2S)CC1)c1c[nH]c2cccc(F)c12 ; read-out: inhibition ; tested at: 10 µM ; read by: luciferase ; cells: HeLa + HELA CD4+/CCR5 ; result: 97%
Cc1cc(C#N)cc(C(=O)c2cc(Cl)ccc2OCC(=O)Nc2cnc(S(N)(=O)=O)cc2C)c1 ; read-out: fold resistance ; read by: β-galactosidase ; cells: HeLa + HELA CD4+ ; mutations: RT-G190A ; strain or isolate: HXB2 ; result: ~1
Cc1cc(S(N)(=O)=O)ccc1NC(=O)COc1ccc(Cl)cc1C(=O)c1cc(F)cc(C(F)(F)F)c1 ; read-out: fold resistance ; read by: β-galactosidase ; cells: HeLa + HELA CD4+ ; mutations: RT-P225H ; strain or isolate: HXB2 ; result: ~1
Cc1cccc2c(C(=O)C(=O)N3CCN(C(=O)c4ccccn4)C[C@H]3C)c[nH]c12 ; read-out: inhibition ; tested at: 10 µM ; read by: luciferase ; cells: HeLa + HELA CD4+/CCR5 ; result: >98%